According to publication PMC5735092 (Scientific Reports, 2017):

Tests used:
[1] = target: IMPα/β1:C (Mus musculus, UniProt P52293); assay: AlphaScreen IMPα/β1:C binding assay; conditions: read-out: IC50 ± SD, 15 nM IMPα/β1, 30 nM capsid
[2] = system: VEEV-TC83luc; assay: VEEV TC-83 luciferase reporter virus replication assay (BrightGlo); type: cell-based, Venezuelan equine encephalitis virus; conditions: read-out: EC50 ± SD; Vero cells, 2 h pretreatment, 16 h post-infection

SMILES | IC50 [1] [µM] | EC50 [2] [µM]
COc1ccc(N2CCN(C(=O)c3cc(-c4cccnc4)nc4ccccc34)CC2)cc1 | 36.2 | –
CC(OC(C)(C)C)C(NC(=O)C(CSC(C)(C)C)NC(=O)C(CCC(=O)OC(C)(C)C)NC(=O)OCC1c2ccccc2-c2ccccc21)C(=O)O (stereo not shown) | 21.9 | > 50
CCOc1ccc(C(=O)C2=C(O)C(=O)N(Cc3cccnc3)C2c2cccc(Oc3ccccc3)c2)cc1C (stereo not shown) | 22.1 | –
